# US12691107B2, “Methods for the treatment and prevention of lung infections caused by gram-positive bacteria, fungus, or virus by administration of tafenoquine” (priority 2020, dated 2026)
# Values joined by “and” are separate entries in the source; they are usually repeats but may differ in a detail not shown here. Identical values can stand only once.
# System: SARS-CoV-2
# Test: Calculation of RLTEC and MPEC50 for tafenoquine against SARS-CoV-2
# Experimental: Pneumocystis was used as a model organism against which to set minimum requirements for the maximum acceptable in vitro EC50 of tafenoquine against SARS-CoV-2 in vitro. Pneumocystis was selected because it is the only lung pathogen for which both in vitro and in vivo data are available for tafenoquine. The maximum lung tissue concentration [LTsscmaxrats] at the minimum dose of tafenoquine necessary to inhibit the growth of Pneumocystis in vivo in a treatment modality was calculated using relevant data derived from the scientific literature [see Table 7]. The ratio of that concentration to the EC50 against Pneumocystis in vitro RLTEC was determined [see Table 7]. The plasma steady state Cmax [Psscmaxhumans] at the approved prophylactic dose is known from the ARAKODA product insert [60 Degrees Pharmaceuticals. 2018. Product Insert for ARAKODA.]. The maximum steady state lung tissue concentration [LTsscmaxhumans] of that dose was determined using relevant metrics from the literature. The maximum permissible EC50 (“MPEC50”) was then defined by dividing the LTsscmaxhumans by the RLTEC [Table 7]. […]
# [Note: These calculated values provided in this example were recalculated and updated in the present application and therefore may differ from what is presented in some cross-referenced U.S. Provisional Applications.]
smiles,measurement,value
"COc1cc(C)c2c(Oc3cccc(C(F)(F)F)c3)c(OC)cc(NC(C)CCCN)c2n1 (stereo not shown) [Tafenoquine, N(4)-[2,6-Dimethoxy-4-methyl-5-[3-(trifluoromethyl)phenoxy]quinolin-8-yl]pentane-1,4-diamine]",RLTEC (ratio of lung tissue concentration to EC50 against Pneumocystis in vitro),23 and 23.3
